The target of this assay is LRP2/gp330 purified from rat kidneys (rat) (UniProt P98158). Kind of assay: SPR; Biacore 3000; receptor amine-coupled to CM5 chip; ligand flowed in HBS-P (0.01 M HEPES pH 7.4, 0.15 M NaCl, 0.005% P20) with 1 mM CaCl2, 10 ul/min, 25 C; kinetic fit to a 1:1 Langmuir model. Background: SPR reads the build-up and loss of mass on a sensor chip optically.

Amino acid sequences for entries named in this document (tags omitted). Residues count along the entry.
UniProt P98158, 26-4660: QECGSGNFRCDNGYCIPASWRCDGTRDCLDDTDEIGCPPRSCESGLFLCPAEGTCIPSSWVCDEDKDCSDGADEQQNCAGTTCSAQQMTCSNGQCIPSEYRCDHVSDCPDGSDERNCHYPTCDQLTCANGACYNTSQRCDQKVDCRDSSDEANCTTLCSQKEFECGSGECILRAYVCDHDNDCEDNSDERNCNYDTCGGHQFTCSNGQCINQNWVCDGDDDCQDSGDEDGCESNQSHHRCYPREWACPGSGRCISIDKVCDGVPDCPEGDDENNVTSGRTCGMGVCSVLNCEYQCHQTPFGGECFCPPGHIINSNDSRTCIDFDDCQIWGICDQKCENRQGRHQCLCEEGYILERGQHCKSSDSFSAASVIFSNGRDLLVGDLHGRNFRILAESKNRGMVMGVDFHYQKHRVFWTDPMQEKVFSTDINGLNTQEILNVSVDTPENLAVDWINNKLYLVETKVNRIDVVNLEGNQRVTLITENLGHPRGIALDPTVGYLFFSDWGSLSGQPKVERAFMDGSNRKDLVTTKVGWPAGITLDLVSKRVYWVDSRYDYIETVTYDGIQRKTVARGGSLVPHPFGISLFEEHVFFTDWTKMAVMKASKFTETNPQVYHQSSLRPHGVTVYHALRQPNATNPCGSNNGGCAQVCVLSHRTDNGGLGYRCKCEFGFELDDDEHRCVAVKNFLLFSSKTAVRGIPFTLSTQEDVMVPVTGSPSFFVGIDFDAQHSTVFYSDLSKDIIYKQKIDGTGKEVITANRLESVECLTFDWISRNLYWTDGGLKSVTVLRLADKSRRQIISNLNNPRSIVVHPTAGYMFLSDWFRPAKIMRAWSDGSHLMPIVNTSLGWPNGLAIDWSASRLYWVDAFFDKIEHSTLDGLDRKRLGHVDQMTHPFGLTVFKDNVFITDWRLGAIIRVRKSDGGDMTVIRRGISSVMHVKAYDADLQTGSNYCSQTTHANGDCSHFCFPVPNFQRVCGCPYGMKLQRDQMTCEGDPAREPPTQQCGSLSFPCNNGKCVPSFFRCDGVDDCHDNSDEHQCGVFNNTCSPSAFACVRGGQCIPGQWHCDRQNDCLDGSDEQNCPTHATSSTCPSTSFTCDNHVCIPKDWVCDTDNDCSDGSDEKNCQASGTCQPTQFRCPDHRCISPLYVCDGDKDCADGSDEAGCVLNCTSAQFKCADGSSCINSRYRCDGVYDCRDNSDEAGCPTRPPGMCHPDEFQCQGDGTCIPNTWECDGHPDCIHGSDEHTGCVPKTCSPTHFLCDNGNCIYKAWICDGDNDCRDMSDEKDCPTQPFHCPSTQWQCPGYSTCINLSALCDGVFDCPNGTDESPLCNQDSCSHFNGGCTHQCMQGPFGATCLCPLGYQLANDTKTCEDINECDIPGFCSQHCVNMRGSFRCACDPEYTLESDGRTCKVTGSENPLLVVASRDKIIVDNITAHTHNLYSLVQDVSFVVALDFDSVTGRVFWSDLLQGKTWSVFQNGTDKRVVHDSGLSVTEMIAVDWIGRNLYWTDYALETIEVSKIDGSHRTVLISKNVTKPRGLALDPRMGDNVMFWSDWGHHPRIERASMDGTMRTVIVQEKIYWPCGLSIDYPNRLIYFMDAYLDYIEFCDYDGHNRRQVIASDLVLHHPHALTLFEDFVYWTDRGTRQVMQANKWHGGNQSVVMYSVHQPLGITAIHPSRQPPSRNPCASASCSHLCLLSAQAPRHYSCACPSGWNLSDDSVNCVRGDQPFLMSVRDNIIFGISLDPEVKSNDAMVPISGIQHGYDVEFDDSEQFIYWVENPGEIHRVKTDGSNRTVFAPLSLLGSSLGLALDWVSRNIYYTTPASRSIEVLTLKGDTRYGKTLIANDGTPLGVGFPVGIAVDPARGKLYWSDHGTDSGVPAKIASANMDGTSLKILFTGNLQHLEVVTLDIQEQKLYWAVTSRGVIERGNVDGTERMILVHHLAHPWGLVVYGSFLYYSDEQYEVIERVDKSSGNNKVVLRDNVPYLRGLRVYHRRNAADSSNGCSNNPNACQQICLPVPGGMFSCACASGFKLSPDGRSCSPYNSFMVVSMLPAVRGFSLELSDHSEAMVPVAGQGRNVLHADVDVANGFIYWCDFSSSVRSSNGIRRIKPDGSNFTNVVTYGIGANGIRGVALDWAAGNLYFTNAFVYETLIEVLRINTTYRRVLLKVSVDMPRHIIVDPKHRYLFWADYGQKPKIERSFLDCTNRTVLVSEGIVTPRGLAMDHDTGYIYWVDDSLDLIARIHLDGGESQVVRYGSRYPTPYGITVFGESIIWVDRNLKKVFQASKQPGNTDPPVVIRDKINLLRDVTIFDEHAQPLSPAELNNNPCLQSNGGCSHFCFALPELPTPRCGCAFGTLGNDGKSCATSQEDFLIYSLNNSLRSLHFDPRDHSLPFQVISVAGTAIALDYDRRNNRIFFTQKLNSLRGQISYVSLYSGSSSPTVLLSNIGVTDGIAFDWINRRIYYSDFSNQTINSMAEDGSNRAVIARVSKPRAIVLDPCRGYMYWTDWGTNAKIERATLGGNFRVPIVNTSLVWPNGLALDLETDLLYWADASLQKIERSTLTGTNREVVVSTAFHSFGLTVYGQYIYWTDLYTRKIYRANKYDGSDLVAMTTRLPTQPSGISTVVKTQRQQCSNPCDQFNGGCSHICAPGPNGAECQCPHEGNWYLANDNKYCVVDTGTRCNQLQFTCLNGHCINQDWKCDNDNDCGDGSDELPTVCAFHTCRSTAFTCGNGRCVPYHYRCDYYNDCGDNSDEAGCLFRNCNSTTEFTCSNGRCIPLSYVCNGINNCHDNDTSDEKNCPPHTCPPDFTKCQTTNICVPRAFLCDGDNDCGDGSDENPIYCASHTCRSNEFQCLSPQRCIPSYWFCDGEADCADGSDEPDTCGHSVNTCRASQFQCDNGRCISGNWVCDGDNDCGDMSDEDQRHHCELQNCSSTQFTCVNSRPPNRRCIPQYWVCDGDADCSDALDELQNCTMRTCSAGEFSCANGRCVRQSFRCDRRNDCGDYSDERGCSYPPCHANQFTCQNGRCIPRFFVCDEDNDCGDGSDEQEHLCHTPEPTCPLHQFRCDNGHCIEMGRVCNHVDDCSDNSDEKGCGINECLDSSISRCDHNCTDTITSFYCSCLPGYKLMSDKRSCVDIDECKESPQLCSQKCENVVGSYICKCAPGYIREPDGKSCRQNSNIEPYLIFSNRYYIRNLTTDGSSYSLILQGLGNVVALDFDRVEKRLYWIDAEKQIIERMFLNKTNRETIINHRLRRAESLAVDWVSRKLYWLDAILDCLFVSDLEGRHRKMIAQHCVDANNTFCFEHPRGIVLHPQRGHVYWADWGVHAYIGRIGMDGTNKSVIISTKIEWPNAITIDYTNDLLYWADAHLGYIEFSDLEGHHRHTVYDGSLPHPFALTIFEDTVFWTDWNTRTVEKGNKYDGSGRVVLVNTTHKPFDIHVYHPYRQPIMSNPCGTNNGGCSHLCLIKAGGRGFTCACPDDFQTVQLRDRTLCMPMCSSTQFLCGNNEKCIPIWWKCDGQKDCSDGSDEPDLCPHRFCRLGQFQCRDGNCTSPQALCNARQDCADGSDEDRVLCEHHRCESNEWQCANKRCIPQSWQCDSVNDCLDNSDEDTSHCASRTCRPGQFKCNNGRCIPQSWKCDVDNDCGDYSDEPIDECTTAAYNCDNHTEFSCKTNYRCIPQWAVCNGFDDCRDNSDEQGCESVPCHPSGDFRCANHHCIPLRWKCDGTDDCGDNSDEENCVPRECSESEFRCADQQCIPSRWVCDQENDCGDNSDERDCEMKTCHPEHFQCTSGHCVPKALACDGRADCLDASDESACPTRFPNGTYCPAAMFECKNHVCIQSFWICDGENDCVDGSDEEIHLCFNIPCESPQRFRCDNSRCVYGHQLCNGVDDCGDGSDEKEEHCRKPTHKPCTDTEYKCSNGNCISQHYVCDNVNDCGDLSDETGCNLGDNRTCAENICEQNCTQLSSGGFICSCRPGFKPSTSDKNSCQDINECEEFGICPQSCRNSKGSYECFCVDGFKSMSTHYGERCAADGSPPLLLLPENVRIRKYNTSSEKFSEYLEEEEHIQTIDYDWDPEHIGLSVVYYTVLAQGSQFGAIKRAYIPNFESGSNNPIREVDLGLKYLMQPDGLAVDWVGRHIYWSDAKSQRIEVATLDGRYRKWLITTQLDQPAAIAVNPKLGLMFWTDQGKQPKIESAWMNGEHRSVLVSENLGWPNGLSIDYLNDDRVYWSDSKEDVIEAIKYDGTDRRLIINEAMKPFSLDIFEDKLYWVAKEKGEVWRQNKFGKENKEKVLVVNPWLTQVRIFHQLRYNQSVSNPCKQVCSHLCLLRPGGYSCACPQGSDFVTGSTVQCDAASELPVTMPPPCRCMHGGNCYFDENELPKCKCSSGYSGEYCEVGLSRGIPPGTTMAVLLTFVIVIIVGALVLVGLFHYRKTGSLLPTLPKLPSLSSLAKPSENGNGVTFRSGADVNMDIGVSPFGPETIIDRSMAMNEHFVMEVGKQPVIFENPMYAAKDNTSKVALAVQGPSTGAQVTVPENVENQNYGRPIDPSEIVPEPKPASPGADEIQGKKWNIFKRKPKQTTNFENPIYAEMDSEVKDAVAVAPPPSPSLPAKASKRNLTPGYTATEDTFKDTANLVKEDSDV

By Kd is commonly meant the free concentration of one partner at which half of the binding sites on the other are occupied at equilibrium, for simple one-to-one binding. A low value points to tighter binding. The koff is the rate constant with which the complex falls apart. Lower therefore signals a long-lived complex. In general, kon refers to the rate constant with which the complex forms. Read a low kon as slower complex formation. For the substance “SARS-CoV-2 spike protein S1 subunit (Val16-Arg685) fused to the Fc region of mouse IgG1 (from UniProt P0DTC2 16-685) (Fc fusion)”, the Kd amounted to 40 nM, the koff turned out to be 0.00036 s⁻¹ and the kon amounted to 9400 M⁻¹ s⁻¹.

The record behind these values is paper PMC12192683.
